A mixed list of measured activities; the numbers were collected in NIAID ChemDB.

Shared fields: growth or infection tests; agent: Aspergillus niger

Inhibition is in % at the dose shown (toxicity tests: loss of growth or viability). An empty or dashed field is not shown. Zone: diameter of growth inhibition. A number after MIC or MFC names an inhibition level or a share of isolates. Two numbers with a dash give a range or band. Neighbouring rows are from separate reports.

compound	strain	method	tested at	endpoint	result
O=C(Nc1cccc(Cl)c1)n1[se]c2ccccc2c1=O	-	agar	-	MIC	352 µg/mL
C(/C=C/c1ccccc1)=NCCNCCN=C/C=C/c1ccccc1.N#C[S][Hg][S]C#N	-	agar diffusion	20000 µg/mL	zone	26 mm
O=C1NC(=S)NC(=O)C1=Cc1cn(-c2ccccc2)nc1-c1cc2ccccc2oc1=O	-	agar diffusion / agar	100 µg	zone	0 mm
CCCCn1[se]c2ccccc2c1=O	-	agar	-	MIC	16 µg/mL
O=C1NC(=O)C(=Cc2cn(-c3ccccc3)nc2-c2cc3cc(Cl)ccc3oc2=O)C(=O)N1	-	agar diffusion / agar	150 µg	zone	0 mm
CC(C)=CCC/C(C)=C/CO	IOA-3	broth dilution	-	MFC	288 µg/mL
C[C@@H](c1ncncc1F)[C@](O)(Cn1cncn1)c1ccc(F)cc1F	-	-	-	MIC50	0.25–2 µg/mL
O=C1NC(=O)C(=Cc2cn(-c3ccccc3)nc2-c2cc3ccccc3oc2=O)C(=O)N1	-	agar diffusion / agar	100 µg	zone	0 mm
CO[C@H]1O[C@@H](Oc2cc(O)c3c(=O)c(-c4ccc(O)cc4)coc3c2)[C@H](O)[C@@H](O)[C@@H]1O	-	-	1000 µg/mL	inhibition	85%
CCn1[se]c2ccccc2c1=O	-	agar	-	MIC	28 µg/mL
O=C1NC(=S)NC(=O)C1=Cc1cn(-c2ccccc2)nc1-c1cc2cc(Cl)ccc2oc1=O	-	agar diffusion / agar	150 µg	zone	0 mm
CCC(C)n1ncn(-c2ccc(N3CCN(c4ccc(OC[C@H]5CO[C@](Cn6cncn6)(c6ccc(Cl)cc6Cl)O5)cc4)CC3)cc2)c1=O	-	-	-	MIC	0.25–4 µg/mL
Cc1nc(Nc2ccccc2)nc2c1C(=N)C(C#N)CN(Cc1ccccc1)C2	-	-	100 µg/mL	zone	1.33 mm
C[C@@H](c1nc(-c2ccc(C#N)cc2)cs1)[C@](O)(Cn1cncn1)c1cc(F)ccc1F	-	-	-	MIC90	2–4 µg/mL
C(/C=C/c1ccccc1)=NCCNCCN=C/C=C/c1ccccc1.[Cl][Hg][Cl]	-	agar diffusion	10000 µg/mL	zone	20 mm
CCC(C)CC(C)CCCCCCCCC(=O)N[C@H]1C[C@@H](O)[C@H](NCCN)NC(=O)[C@@H]2[C@@H](O)CCN2C(=O)[C@H]([C@H](O)CCN)NC(=O)[C@H]([C@H](O)[C@@H](O)c2ccc(O)cc2)NC(=O)[C@@H]2C[C@@H](O)CN2C(=O)[C@H]([C@@H](C)O)NC1=O	-	-	-	MIC50	0.06–0.25 µg/mL
CCOC(=O)n1[se]c2ccccc2c1=O	-	agar	-	MIC	129 µg/mL
O=C1NC(=S)NC(=O)C1=Cc1cn(-c2ccccc2)nc1-c1cc2cc(Cl)cc(Cl)c2oc1=O	-	agar diffusion / agar	150 µg	zone	0 mm
CCCCCOc1ccc(-c2cc(-c3ccc(C(=O)N[C@H]4C[C@@H](O)[C@@H](O)NC(=O)[C@@H]5[C@@H](O)[C@@H](C)CN5C(=O)[C@H]([C@H](O)CC(N)=O)NC(=O)[C@H]([C@H](O)[C@@H](O)c5ccc(O)c(OS(=O)(=O)O)c5)NC(=O)[C@@H]5C[C@@H](O)CN5C(=O)[C@H]([C@@H](C)O)NC4=O)cc3)no2)cc1	-	-	-	MIC	0.015–0.06 µg/mL

A second listing of 2 rows from above:

CCn1[se]c2ccccc2c1=O ; method: agar ; endpoint: MIC ; result: 28 µg/mL
O=C1NC(=O)C(=Cc2cn(-c3ccccc3)nc2-c2cc3cc(Cl)ccc3oc2=O)C(=O)N1 ; method: agar diffusion / agar ; tested at: 150 µg ; endpoint: zone ; result: 0 mm